Experimental data reported in patent publication US20230279072A1, “REGULATORY T CELL EPITOPES” (EpiVax Inc., priority 2020, published 2023).

Tested on: CD4+ T cells in PBMCs from healthy donors
Assay: Tetanus Toxoid Bystander Suppression Assay (TTBSA)
Format: cell-based, human
Settings: free peptide 8, 16, 24 μg/ml; HSA-conjugate 10, 40 and 100 μg/ml (0.25, 1.0, 2.5 μg/ml FV621)

With “HSA: recombinant human serum albumin, not conjugated to FV621 [reference compound]” as the substance, how does the “inhibition of TT mediated CD4+ T cell proliferation, free peptide vs HSA conjugate” value read?
The value was “did not have any impact”.
